The target of this data set is TcpK (Clostridium perfringens (plasmid pCW3)) (UniProt Q1PLI2). The data set can be described thus: analytical ultracentrifugation. The settings on record: 24 uM TcpK, 12 uM DNA; recombinant protein; protein details: N-terminal His6-TEV, cleaved.

Construct, isoform or probe ends are uncertain for at least one entry. At least one verdict rests on a figure or table, not on a statement of the authors.

In the case of “AAGGAACTTTACAGGGAACTTTA (double strand) [oriTmin23]”, the binding result is given as “binds”.
